We go through four molecules from patent publication US20040091855A1, “Method for production of antivirals by use of HIV-derived HR1 peptides, and trimers formed therefrom” (priority 2002, published 2004).

Structures are written as SMILES. Bounds are passed on as bounds.

A short description of series [1]: Sedimentation equilibrium experiments (oligomerization state). It counts as physicochemical. To be noted: in solution; peptide 1 μM to 100 μM. Here is the method: Oligomerization state was assessed by using methods standard in the art for performing sedimentation equilibrium experiments and for analysis of the resultant data. In that regard, sedimentation equilibrium experiments were performed over a concentration range of synthetic peptide (1 μM to 100 μM) as follows. Briefly, six-channel cells (12 mm optical path length) were used with an An-60 Ti rotor operated at 13,500 rpm, 18,000 rpm, 22,000 rpm, and 35,000 rpm) in an analytical ultracentrifuge at 4C. The cell radii were scanned using 0.001 cm steps with 10 averages/scan at 3 different wavelengths (235 nm, 240 nm, 280 nm). Data obtained with solutions containing synthetic peptide was analyzed using a single species model to determine a weight-averaged molecular weight (MW). Diagnostic plots of MW/ MW0 vs. rpm/rpm0 and MW vs. radial concentration were used to test for sample homogeneity. When systemic residuals or a MW higher than monomer molecular weight indicated the presence of self-association, associative models were investigated. The suitability of a model (goodness of fit) was judged by the trends observed in the residuals.

Series [2] can be described thus: Helicity by circular dichroism. It counts as physicochemical. To be noted: at 10 μM, 25° C. Here is the method: (§1) Helicity was assessed by circular dichroism (“CD”) as follows. Briefly, CD spectra were obtained using a spectrometer equipped with a thermoelectric temperature controller. The spectra was obtained at 25° C. with 0.5 nanometer (nm) steps from 200 to 260 nm, with a 1.5 nm bandwith, and a typical averaging time of 4 seconds/step. After the cell/buffer blank was subtracted, spectra were smoothed using a third-order least-squares polynomial fit with a conservative window size to give random residuals. Raw ellipticity values were converted to mean residue ellipticity using standard methods, and plotted was the wavelength (from 200 to 260 nm) versus [θ]×10^−3 (degrees cm^2/dmol). Percent helicity values were then calculated using standard methods. Assessment of thermal stability was performed by monitoring the change in CD signal at 222 nm as temperature was raised in 2° C. steps, with 1 minute equilibration times. The thermal stability for each sample (e.g., synthetic peptide) was represented by the transition temperature (Tm) determined by the derivative method.

Series [3] in a line: Thermal stability (Tm) by CD signal at 222 nm. To be noted: at 10 μM. In kind it is physicochemical. Here is the method:
as §1

Series [4] has as its system HR2 peptide (SEQ ID NO:33). The series can be described thus: Fluorescence polarization assay of binding to labeled HR2 peptide. More on the design: species or system HIV-1. To be noted: ability to complex with HR2 peptide denoted as yes. From the text: These include a protein chip assay (using Biacore analysis) in which surface plasmon resonance is used to detect the binding, and kinetics thereof, between a synthetic peptide and an HR2 peptide; and a fluorescence polarization assay. In the fluorescence polarization assay, a detectable moiety comprising a fluorescent dye (e.g., rhodamine and/or fluorescein) was used to label HR2 peptide, and the assay was then allowed to proceed under sufficient conditions and for a sufficient period of time for labeled peptide to bind to HR1 peptide, or synthetic peptide (or trimer formed therefrom).

In another series the test system is HIV IIIB. It counts as cell-based, HIV-1. Particulars: IIIB.

Consider `CC[C@H](C)[C@H](NC(=O)CNC(=O)[C@H](Cc1c[nH]c2ccccc12)NC(=O)[C@@H](NC(=O)[C@@H](NC(=O)[C@H](CC(C)C)NC(=O)[C@H](CCC(N)=O)NC(=O)[C@H](CC(C)C)NC(=O)[C@H](CC(C)C)NC(=O)[C@H](Cc1c[nH]cn1)NC(=O)[C@H](CCC(N)=O)NC(=O)[C@H](CCC(N)=O)NC(=O)[C@H](C)NC(=O)[C@H](CCC(=O)O)NC(=O)[C@@H](NC(=O)[C@H](C)NC(=O)[C@H](CCCNC(=N)N)NC(=O)[C@H](CC(C)C)NC(=O)[C@H](CC(C)C)NC(=O)[C@H](CC(N)=O)NC(=O)[C@H](CC(N)=O)NC(=O)[C@H](CCC(N)=O)NC(=O)[C@H](CCC(N)=O)NC(=O)[C@H](CCC(N)=O)NC(C)=O)[C@@H](C)CC)[C@@H](C)O)C(C)C)C(=O)N[C@@H](CCCCN)C(=O)N[C@@H](CCC(N)=O)C(=O)N[C@@H](CC(C)C)C(=O)N[C@@H](CCC(N)=O)C(=O)N[C@@H](C)C(=O)N[C@@H](CCCNC(=N)N)C(=O)N[C@H](C(=O)N[C@@H](CC(C)C)C(=O)N[C@@H](C)C(=O)N[C@H](C(=O)N[C@@H](CCC(=O)O)C(=O)N[C@@H](CCCNC(=N)N)C(=O)N[C@@H](Cc1ccc(O)cc1)C(=O)N[C@@H](CC(C)C)C(=O)N[C@@H](CCCCN)C(=O)N[C@@H](CC(=O)O)C(=O)N[C@@H](CCC(N)=O)C(N)=O)C(C)C)[C@@H](C)CC` [SEQ ID NO:27, reference compound], for which, in series [1], the Oligomerization entry was “Tetramer”. Further, the Helicity in series [2] was 72%. In addition, the “Stability Tm” value in series [3] is “Tm 76 °C”. Moreover, the HR2 peptide binding entry in series [4] is on record as “Yes”. In addition, in the series on HIV IIIB, the “Antiviral activity against HIV IIIB IC50” value worked out at 4.69 µg/mL and the “Antiviral activity against HIV IIIB IC90” value was determined as 23.24 µg/mL.

Consider `CC[C@H](C)[C@H](NC(=O)CNC(=O)[C@H](Cc1c[nH]c2ccccc12)NC(=O)[C@H](C)NC(=O)[C@@H](NC(=O)[C@H](CC(C)C)NC(=O)[C@H](CCC(N)=O)NC(=O)[C@H](CC(C)C)NC(=O)[C@H](CC(C)C)NC(=O)[C@H](Cc1c[nH]cn1)NC(=O)[C@H](CCC(N)=O)NC(=O)[C@H](CCC(N)=O)NC(=O)[C@H](C)NC(=O)[C@H](CCC(=O)O)NC(=O)[C@@H](NC(=O)[C@H](C)NC(=O)[C@H](CCCNC(=N)N)NC(=O)[C@H](CC(C)C)NC(=O)[C@H](CC(C)C)NC(=O)[C@H](CC(N)=O)NC(=O)[C@H](CC(N)=O)NC(=O)[C@H](CCC(N)=O)NC(=O)[C@H](CCC(N)=O)NC(=O)[C@H](CCC(N)=O)NC(C)=O)[C@@H](C)CC)[C@@H](C)O)C(=O)N[C@@H](CCCCN)C(=O)N[C@@H](CCC(N)=O)C(=O)N[C@@H](CC(C)C)C(=O)N[C@@H](CCC(N)=O)C(=O)N[C@@H](C)C(=O)N[C@@H](CCCNC(=N)N)C(=O)N[C@H](C(=O)N[C@@H](CC(C)C)C(=O)N[C@@H](C)C(=O)N[C@H](C(=O)N[C@@H](CCC(=O)O)C(=O)N[C@@H](CCCNC(=N)N)C(=O)N[C@@H](Cc1ccc(O)cc1)C(=O)N[C@@H](CC(C)C)C(=O)N[C@@H](CCCCN)C(=O)N[C@@H](CC(=O)O)C(=O)N[C@@H](CCC(N)=O)C(N)=O)C(C)C)[C@@H](C)CC` [SEQ ID NO:29], for which the Oligomerization result in series [1] is on record as “Trimer*”. In series [2], the Helicity was 78%. Further, in series [3], the “Stability Tm” value was “Tm 65 °C”. For the same molecule, the HR2 peptide binding entry in series [4] is “Yes”. For the same molecule, in the series on HIV IIIB, the “Antiviral activity against HIV IIIB IC50” value is 2.81 µg/mL and the “Antiviral activity against HIV IIIB IC90” value amounted to 5.86 µg/mL.

In the case of `CC[C@H](C)[C@H](NC(=O)CNC(=O)[C@H](C)NC(=O)[C@@H](NC(=O)[C@@H](NC(=O)[C@H](CC(C)C)NC(=O)[C@H](CCC(N)=O)NC(=O)[C@H](CC(C)C)NC(=O)[C@H](CC(C)C)NC(=O)[C@H](Cc1c[nH]cn1)NC(=O)[C@H](CCC(N)=O)NC(=O)[C@H](CCC(N)=O)NC(=O)[C@H](C)NC(=O)[C@H](CCC(=O)O)NC(=O)[C@@H](NC(=O)[C@H](C)NC(=O)[C@H](CCCNC(=N)N)NC(=O)[C@H](CC(C)C)NC(=O)[C@H](CC(C)C)NC(=O)[C@H](CC(N)=O)NC(=O)[C@H](CC(N)=O)NC(=O)[C@H](CCC(N)=O)NC(=O)[C@H](CCC(N)=O)NC(=O)[C@H](CCC(N)=O)NC(C)=O)[C@@H](C)CC)[C@@H](C)O)C(C)C)C(=O)N[C@@H](CCCCN)C(=O)N[C@@H](CCC(N)=O)C(=O)N[C@@H](CC(C)C)C(=O)N[C@@H](CCC(N)=O)C(=O)N[C@@H](C)C(=O)N[C@@H](CCCNC(=N)N)C(=O)N[C@H](C(=O)N[C@@H](CC(C)C)C(=O)N[C@@H](C)C(=O)N[C@H](C(=O)N[C@@H](CCC(=O)O)C(=O)N[C@@H](CCCNC(=N)N)C(=O)N[C@@H](Cc1ccc(O)cc1)C(=O)N[C@@H](CC(C)C)C(=O)N[C@@H](CCCCN)C(=O)N[C@@H](CC(=O)O)C(=O)N[C@@H](CCC(N)=O)C(N)=O)C(C)C)[C@@H](C)CC` [SEQ ID NO:30], the Oligomerization entry in series [1] is recorded as “Trimer*”. Also, the Helicity in series [2] is listed as 84%. Also, the “Stability Tm” value in series [3] was “Tm 77 °C”. Further, in the series on HIV IIIB, the “Antiviral activity against HIV IIIB IC50” value came out at 0.37 µg/mL and the “Antiviral activity against HIV IIIB IC90” value is 1.00 µg/mL.

Turning to `CC[C@H](C)[C@H](NC(=O)CNC(=O)[C@H](Cc1c[nH]c2ccccc12)NC(=O)[C@@H](NC(=O)[C@@H](NC(=O)[C@H](CC(C)C)NC(=O)[C@H](CCC(N)=O)NC(=O)[C@H](CC(C)C)NC(=O)[C@H](CC(C)C)NC(=O)[C@H](Cc1c[nH]cn1)NC(=O)[C@H](CCC(N)=O)NC(=O)[C@@H](NC(=O)[C@H](C)NC(=O)[C@H](CCC(=O)O)NC(=O)[C@@H](NC(=O)[C@H](C)NC(=O)[C@H](CCCNC(=N)N)NC(=O)[C@H](CC(C)C)NC(=O)[C@H](CC(C)C)NC(=O)[C@H](CC(N)=O)NC(=O)[C@H](CC(N)=O)NC(=O)[C@H](CCC(N)=O)NC(=O)[C@H](CCC(N)=O)NC(=O)[C@H](CCC(N)=O)NC(=O)[C@@H](NC(=O)[C@@H](NC(=O)CNC(=O)[C@H](CO)NC(=O)[C@H](CC(C)C)NC(=O)[C@H](CC(C)C)NC(=O)[C@H](CCC(N)=O)NC(=O)[C@H](CCCNC(=N)N)NC(=O)[C@@H](NC(=O)[C@H](CCC(N)=O)NC(C)=O)[C@@H](C)CC)[C@@H](C)CC)C(C)C)[C@@H](C)CC)[C@@H](C)CC)[C@@H](C)CC)C(C)C)C(=O)N[C@@H](CCCCN)C(=O)N[C@@H](CCC(N)=O)C(=O)N[C@@H](CC(C)C)C(=O)N[C@@H](CCC(N)=O)C(=O)N[C@@H](C)C(=O)N[C@@H](CCCNC(=N)N)C(=O)N[C@H](C(=O)N[C@@H](CC(C)C)C(=O)N[C@@H](C)C(=O)N[C@H](C(=O)N[C@@H](CCC(=O)O)C(=O)N[C@@H](CCCNC(=N)N)C(=O)N[C@@H](Cc1ccc(O)cc1)C(=O)N[C@@H](CC(C)C)C(=O)N[C@@H](CCCCN)C(N)=O)C(C)C)[C@@H](C)CC` [SEQ ID NO:42], in series [1], the Oligomerization entry was “Aggregates”. The molecule further came in with a Helicity in series [2] of 85%. The “Stability Tm” value in series [3] is greater than 97 °C. Further, in the series on HIV IIIB, the “Antiviral activity against HIV IIIB IC50” value came to 13.605 µg/mL and the “Antiviral activity against HIV IIIB IC90” value worked out at 33.56 µg/mL.
